Record: PubChem BioAssay AID1259414 (Drosophila RNAi Screening Center, 2018)
The deposit covers about 24,000 reagents; shown is a random part of those that have a named target and a result. Over the whole deposit, about 1,210 (5%) were called active. 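Inactive calls also include excluded dsRNAs with several or no targets, genes unexpressed in JW18, and well A1, regardless of score.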 Unmarked entries are inactive. Reagents against one gene are numbered here. A plus sign joins genes that one reagent is predicted to hit.

Assay: 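Host factors increasing or decreasing Wolbachia levels in cultured fly cells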 (primary screen)
System: Drosophila JW18 cells infected with Wolbachia
Reagent: long dsRNA against Drosophila genes, 0.25 µg dsRNA per well of a 384-well plate
Duration: 5 days
Conditions: cells persistently infected with Wolbachia before knock-down; no added drug
Detection: 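Automated imaging of bacterial rRNA staining divided by host cell count, reported as plate-normalised robust z-score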
Reading the numbers: Wolbachia per cell robust z: higher = more Wolbachia per host cell than the plate typical
Rule for the call: 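Active if absolute robust z reaches 1.5 in two or more of three replicates, leaving out multi- or no-target dsRNAs, genes unexpressed in JW18 and A1 wells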

target gene	reagent	Wolbachia per cell robust z, rep 1	Wolbachia per cell robust z, rep 2	Wolbachia per cell robust z, rep 3
CG5793	1	-1.29	-0.142	0.324
CG5793	2	0.733	0.467	0.629
CG9863 + CG3502	1	0.62	1.17	-3.66
Pgm1	1	-0.263	-0.178	0.0268
Pgm1	2	-0.478	-2.78	-0.45
CG13247	1	-2.58 (active)	-0.694	-1.5
sals	1	-0.215	-0.598	-0.0478
sals	2	0.214	-0.112	-0.0678
sals	3	0.8	0.796	0.419
sn	1	0.0446	0.476	0.0853
sn	2	-0.883	-0.873	-0.0307
gig	1	-1.87	-0.149	0.229
gig	2	-0.0134	-0.917	-2.39
CG31272	1	0.34	-1.82	-3.93
Cyp28d1	1	-0.554	-5.99	0.927
Cyp28d1	2	0.938	-0.0728	1.38
Cyp28d1	3	0.994	-0.871	0.278
CG1142	1	-0.142	-0.357	-0.732
CG1142	2	-0.185	0.0917	0.853
LManI	1	-1.47	0.558	0.0584
LManI	2	-0.0802	0.0267	0.274
LManI	3	0.36	-0.473	0.704
ex	1	0.684	-1.38	-0.042
ex	2	-0.608	1.73	-0.73
CG42521	1	-4.14	-1.34	-1.11
eIF3d1	1	0.287	0.993	0.846
CG1722	1	0.677	0.334	0.34
CG31542 + CG34277	1	-1.64	-0.124	-0.0544
CG14270	1	-2.3 (active)	0.189	-2.49
CG34117	1	-0.219	0.438	0.35
epsilonTry	1	0.482	0.78	-1.27
epsilonTry	2	-0.935	0.5	-0.77

The list goes on (5 carried over from the part before).
target gene	reagent	Wolbachia per cell robust z, rep 1	Wolbachia per cell robust z, rep 2	Wolbachia per cell robust z, rep 3
CG31542 + CG34277	1	-1.64	-0.124	-0.0544
CG14270	1	-2.3 (active)	0.189	-2.49
CG34117	1	-0.219	0.438	0.35
epsilonTry	1	0.482	0.78	-1.27
epsilonTry	2	-0.935	0.5	-0.77
GstD9	1	-2.42	0.571	0.231
GstD9	2	-0.0169	-1.54	-0.171
CG42654	1	-1.83	-2.65	0.305
otu	1	0.0348	-0.243	0.534
otu	2	-0.412	0.611	-0.903
CG9825	1	0.895	-5.23	1.14
CG9825	2	-2.27	-1.28	-1.39
Sema1b	1	0.341	-0.268	-10.7
Sema1b	2	0.499	-0.42	0.269
CG11596	1	0.859	-0.391	1.08
CG11596	2	0.527	0.805	0.385
CG34423	1	0.0667	0.4	0.217
CG32276	1	0.765	0.219	0.848
Med	1	0.273	0.824	0.475
Med	2	-0.172	-1.5	0.26
CCDC53	1	-4.32	0.185	0.146
eIF3d2	1	1.09	-1.01	-0.876
kug	1	0.0592	-0.517	-4.29
AlaRS	1	-0.915	0.734	0.601
RhoGAP102A	1	0.148	-6.5	0.676
RhoGAP102A	2	1.63	0.345	0.637
Ulp1	1	-0.456	-0.331	0.533
Dhit	1	-0.214	-0.674	-1.78
Dhit	2	-0.391	-0.289	0.843
CG5080	1	0.429	0.0653	-1.54
GlcT	1	-0.754 (active)	-1.64	-5.64
GlcT	2	-0.0221	0.801	0.0915
nrm	1	-0.117	-0.482	0.13
nrm	2	-0.609	-2.05	0.404
nrm	3	1.07	-0.749	-0.453
Bili	1	-0.863	-0.932	1.05
Sgt1	1	-4.18	0.702	0.775
Sgt1	2	-4.83 (active)	-2.45	-0.701
RhoGAP71E	1	0.566	0.647	-0.606
RhoGAP71E	2	-0.682	2.3	0.36
RhoGAP71E	3	-0.16	0.561	0.533
